For at least one entry, the source does not settle the construct or the ends of the probe. Where a protein sequence is shown, tags need not be part of it.
What follows are sequences tested against T1, RecGNm (Neisseria meningitidis MC58) (UniProt Q9JY17) (assay: EMSA). Conditions: 200-400 nM protein; EMSA: 40 mM Tris-HCl pH 8, 2.5 mM EDTA, 2 mM MgCl2, 6% glycerol, 1 mM DTT, 0.1 nM DNA, 15 min on ice; recombinant protein; protein details: N-terminal 6xHis (pET28b).
T1 sequence (looked up, limits assumed): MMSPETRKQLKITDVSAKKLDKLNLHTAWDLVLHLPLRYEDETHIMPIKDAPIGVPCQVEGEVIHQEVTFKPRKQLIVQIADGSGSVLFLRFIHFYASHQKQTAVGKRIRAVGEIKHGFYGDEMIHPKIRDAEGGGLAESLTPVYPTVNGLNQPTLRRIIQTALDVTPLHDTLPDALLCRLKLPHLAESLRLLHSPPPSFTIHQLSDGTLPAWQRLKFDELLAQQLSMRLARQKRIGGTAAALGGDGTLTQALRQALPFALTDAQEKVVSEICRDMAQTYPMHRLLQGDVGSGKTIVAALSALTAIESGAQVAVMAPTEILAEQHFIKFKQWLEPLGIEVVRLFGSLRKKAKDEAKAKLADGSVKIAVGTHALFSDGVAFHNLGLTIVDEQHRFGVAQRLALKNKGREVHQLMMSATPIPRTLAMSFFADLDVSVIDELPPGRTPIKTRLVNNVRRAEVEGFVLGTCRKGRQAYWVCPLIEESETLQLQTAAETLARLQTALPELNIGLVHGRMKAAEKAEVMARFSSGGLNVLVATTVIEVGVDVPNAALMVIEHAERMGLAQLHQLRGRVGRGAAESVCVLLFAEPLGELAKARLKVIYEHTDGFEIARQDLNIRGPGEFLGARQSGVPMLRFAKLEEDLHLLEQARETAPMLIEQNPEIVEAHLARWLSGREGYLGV

Binding result, binds:
GGGTGAACCTGCAGGTGGGCGGCTGCTCATCGTAGGTTAGTTGGTAGAATTCGGCAGCGTC / GACGCTGCCGAATTCTACCAGTGCCTTGCTAGGACATCTTTGCCCACCTGCAGGTTCACCC / TAAGAGCAAGATGTTCTATAAAAGATGTCCTAGCAAGGCAC [5' tail D-loop]
GGGTGAACCTGCAGGTGGGCGGCTGCTCATCGTAGGTTAGTTGGTAGAATTCGGCAGCGTC / GACGCTGCCGAATTCTACCAGTGCCTTGCTAGGACATCTTTGCCCACCTGCAGGTTCACCC / AAAGATGTCCTAGCAAGGCACGATCGACCGGATATCTATGA [3' tail D-loop]
GGGTGAACCTGCAGGTGGGCGGCTGCTCATCGTAGGTTAGTTGGTAGAATTCGGCAGCGTC / GACGCTGCCGAATTCTACCAGTGCCTTGCTAGGACATCTTTGCCCACCTGCAGGTTCACCC / TATAGAACATCTTGCTCGTTTTCGAGCAAGATGTTCTATAAAAGATGTCCTAGCAAGGCAC [5' hairpin tail D-loop]

From paper PMC5063381, “Characterization of the Neisseria meningitidis Helicase RecG” (PLoS ONE, 2016)
